PubChem BioAssay AID624099, ICCB-Longwood, 2012

- Test: 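Human genes that papillomavirus E2 requires to repress the HPV18 LCR promoter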 (primary screen)
- Cell system: human C33A cervical carcinoma cells (HPV-negative) stably expressing BPV1 E2 and an HPV18 LCR luciferase reporter
- Reagent: siRNA pool against human genes, 40 nM
- Time to read-out: 72 h
- Measured: 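HPV18 LCR reporter light per well, converted to plate-wise z-scores that exclude control wells, and averaged over triplicate plates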
- Reading the numbers: mean z-score and z-score: higher = stronger reporter signal, weaker E2 silencing
- Rule for the call: 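Hit if mean z-score reaches 2 and two or more of three replicate z-scores also reach 2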
The deposit covers about 21,000 reagents; below is an unselected part. Of all reagents, 497 (2.4%) got an active call. 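Higher z means weaker E2 silencing; only reporter increases were scored, and knock-downs that hurt cell survival may mask genuine repressor factors.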 Unmarked entries are inactive.

gene	PubChem SID	mean z-score	z-score, replicate A	z-score, replicate B	z-score, replicate C
HAND1 (heart and neural crest derivatives expressed 1)	SID134314523	-0.39	-0.19	-0.73	-0.26
MED25 (mediator complex subunit 25)	SID134318800	-0.87	-0.96	-0.83	-0.82
HEG1 (heart development protein with EGF like domains 1)	SID134325752	-2.26	-2.27	-2.14	-2.36
DRICH1 (aspartate rich 1)	SID134324731	1.25	1.33	1.41	1.03
CRH (corticotropin releasing hormone)	SID134315523	0.03	0.05	0.02	0.03
TLR8 (toll like receptor 8)	SID134310588	0.42	0.28	0.5	0.48
MORN1 (MORN repeat containing 1)	SID134318630	-1.78	-1.69	-1.93	-1.71
PPP6C (protein phosphatase 6 catalytic subunit)	SID134314626	-0.37	-0.65	-0.27	-0.18
SPTLC3 (serine palmitoyltransferase long chain base subunit 3)	SID134314861	0.67	0.96	0.92	0.13
CEACAM21 (CEA cell adhesion molecule 21)	SID134319140	0.16	0.25	0.09	0.16
IFT88 (intraflagellar transport 88)	SID134316563	0.91	0.95	0.92	0.85
AICDA (activation induced cytidine deaminase)	SID134324993	0.65	0.36	0.77	0.82
GLS (glutaminase)	SID134310514	-0.28	-0.41	-0.24	-0.2
TIGD7 (tigger transposable element derived 7)	SID134321379	0.07	-0.14	0.11	0.25
WFDC9 (WAP four-disulfide core domain 9)	SID134321416	-0.22	-0.45	-0.1	-0.1
HOXD3 (homeobox D3)	SID134321285	0.04	0.09	-0.11	0.13
PCED1A (PC-esterase domain containing 1A)	SID134320321	-1.06	-1.32	-1.35	-0.51
ATF3 (activating transcription factor 3)	SID134313522	-0.04	-0.18	-0.11	0.18
CLTC (clathrin heavy chain)	SID134310218	0.58	0.44	0.66	0.64
SLC1A1	SID134312473	0.2	0.06	0.19	0.36
AMTN (amelotin)	SID134330003	0.87	1.24	0.91	0.46
SH2D4B (SH2 domain containing 4B)	SID134329526	0.51	0.65	0.79	0.1
SCGB2A2 (secretoglobin family 2A member 2)	SID134310041	0.24	0.4	0.43	-0.11
RHBDF2 (rhomboid 5 homolog 2)	SID134319807	-0.81	-0.63	-1.07	-0.74
SLC22A23	SID134312368	0.75	1.15	0.62	0.49
SLC22A23	SID134319833	-0.08	0.46	-0.4	-0.32
COL25A1 (collagen type XXV alpha 1 chain)	SID134318998	0.24	0.01	0.57	0.13
DDX10 (DEAD-box helicase 10)	SID134316158	-0.99	-0.64	-1.31	-1.01
PLAC8L1 (PLAC8 like 1)	SID134326042	1.01	1.23	1.11	0.69
ZFP91 (ZFP91 zinc finger protein, atypical E3 ubiquitin ligase)	SID134317654	2.37 (active)	2.36	2.07	2.67
SOD3 (superoxide dismutase 3)	SID134314458	0.26	0.15	0.26	0.36
CATSPERT (catsper channel auxiliary subunit tau)	SID134322611	0.19	0.73	0.02	-0.17
TNFRSF10C (TNF receptor superfamily member 10c)	SID134313018	0.73	0.63	0.74	0.83
AZI2 (5-azacytidine induced 2)	SID134318272	-1.22	-1.24	-1.18	-1.22
IFNA21 (interferon alpha 21)	SID134323430	-1.85	-1.77	-2.01	-1.79
MYO9A (myosin IXA)	SID134311862	0.16	-0.29	0.41	0.37
ZMYND15 (zinc finger MYND-type containing 15)	SID134318915	0.11	0	0.19	0.14
OSBP2 (oxysterol binding protein 2)	SID134313927	-0.87	-0.97	-0.83	-0.8
HIF3A (hypoxia inducible factor 3 subunit alpha)	SID134314715	-0.49	-0.64	-0.53	-0.31
LOC389771 (retired record)	SID134328082	0.7	0.57	0.81	0.71
POMT2 (protein O-mannosyltransferase 2)	SID134322951	-0.34	0.01	-0.4	-0.64
RBM4 (RNA binding motif protein 4)	SID134323366	-0.05	0.03	-0.18	-0.01
ZNF195 (zinc finger protein 195)	SID134323299	-0.34	-0.35	-0.49	-0.17
DEFB4A (defensin beta 4A)	SID134317239	0.86	0.95	0.79	0.84
TACR2 (tachykinin receptor 2)	SID134311164	0.32	0.36	0.37	0.23
LINC02908 (long independently transcribed non-coding RNA 2908)	SID134329664	-0.42	-0.53	-0.33	-0.39
CDC42BPG (CDC42 binding protein kinase gamma)	SID56479186	-0.19	0.33	-0.2	-0.7
NR2F6 (nuclear receptor subfamily 2 group F member 6)	SID134309874	1.58	1.68	1.28	1.78
H4C14 (H4 clustered histone 14)	SID134322873	0.61	0.61	0.63	0.59
TRIB1 (tribbles pseudokinase 1)	SID56478720	-1.48	-1.87	-1.25	-1.32
WDR43 (WD repeat domain 43)	SID134325469	-1.89	-1.78	-1.98	-1.9
HAO1 (hydroxyacid oxidase 1)	SID134314324	-0.09	0.05	-0.06	-0.27
LOC400749 (retired record)	SID134327036	0.4	0.52	0.44	0.25
SLC9A8	SID134312674	-1	-0.9	-0.97	-1.12
CNNM4	SID134324056	1.16	1.17	1.01	1.29
NUDCD3 (NudC domain containing 3)	SID134318206	1.35	1.23	1.36	1.44
CBX3 (chromobox 3)	SID134314684	-0.93	-0.67	-0.96	-1.14
THOP1 (thimet oligopeptidase 1)	SID134311467	0.28	0.35	0.45	0.05
PDZD9 (PDZ domain containing 9)	SID134322217	-0.95	-1.1	-0.66	-1.08
PRMT2 (protein arginine methyltransferase 2)	SID134310236	0.36	0.37	0.3	0.43
TMEM39A (transmembrane protein 39A)	SID134324136	-0.48	-0.9	-0.8	0.26
LOC339003 (retired record)	SID134325393	-0.04	-0.08	0.07	-0.1
APEX2 (apurinic/apyrimidinic endodeoxyribonuclease 2)	SID134317940	-1.59	-1.66	-1.53	-1.59
ISOC2 (isochorismatase domain containing 2)	SID134318577	0.61	0.82	0.63	0.39
BBX (BBX high mobility group box domain containing)	SID134319336	-0.12	-0.05	-0.08	-0.24
RNF10 (ring finger protein 10)	SID134312046	-0.3	-0.41	-0.29	-0.2
DPT (dermatopontin)	SID134315966	0.87	0.79	0.8	1.01
GPLD1 (glycosylphosphatidylinositol specific phospholipase D1)	SID134314505	-0.63	-0.61	-0.54	-0.75
HABP2 (hyaluronan binding protein 2)	SID134311320	-2.4	-2	-2.79	-2.41
HSPBAP1 (HSPB1 associated protein 1)	SID134310365	0.1	0.27	-0.11	0.14
RPL23AP43 (ribosomal protein L23a pseudogene 43)	SID134327316	0.17	0.31	-0.12	0.32
LINC01555 (long independently transcribed non-coding RNA 1555)	SID134322046	-0.72	-0.8	-1.01	-0.34
GRINA	SID134315189	0.01	-0.15	0.05	0.11

Already shown: entries from further up.
gene	PubChem SID	mean z-score	z-score, replicate A	z-score, replicate B	z-score, replicate C
HAO1 (hydroxyacid oxidase 1)	SID134314324	-0.09	0.05	-0.06	-0.27
LOC400749 (retired record)	SID134327036	0.4	0.52	0.44	0.25
SLC9A8	SID134312674	-1	-0.9	-0.97	-1.12
CNNM4	SID134324056	1.16	1.17	1.01	1.29
